Amino acid sequences for entries named in this document (tags omitted). A change or cut given only in a name is not applied to a line headed by its entry.
UniProt P03300: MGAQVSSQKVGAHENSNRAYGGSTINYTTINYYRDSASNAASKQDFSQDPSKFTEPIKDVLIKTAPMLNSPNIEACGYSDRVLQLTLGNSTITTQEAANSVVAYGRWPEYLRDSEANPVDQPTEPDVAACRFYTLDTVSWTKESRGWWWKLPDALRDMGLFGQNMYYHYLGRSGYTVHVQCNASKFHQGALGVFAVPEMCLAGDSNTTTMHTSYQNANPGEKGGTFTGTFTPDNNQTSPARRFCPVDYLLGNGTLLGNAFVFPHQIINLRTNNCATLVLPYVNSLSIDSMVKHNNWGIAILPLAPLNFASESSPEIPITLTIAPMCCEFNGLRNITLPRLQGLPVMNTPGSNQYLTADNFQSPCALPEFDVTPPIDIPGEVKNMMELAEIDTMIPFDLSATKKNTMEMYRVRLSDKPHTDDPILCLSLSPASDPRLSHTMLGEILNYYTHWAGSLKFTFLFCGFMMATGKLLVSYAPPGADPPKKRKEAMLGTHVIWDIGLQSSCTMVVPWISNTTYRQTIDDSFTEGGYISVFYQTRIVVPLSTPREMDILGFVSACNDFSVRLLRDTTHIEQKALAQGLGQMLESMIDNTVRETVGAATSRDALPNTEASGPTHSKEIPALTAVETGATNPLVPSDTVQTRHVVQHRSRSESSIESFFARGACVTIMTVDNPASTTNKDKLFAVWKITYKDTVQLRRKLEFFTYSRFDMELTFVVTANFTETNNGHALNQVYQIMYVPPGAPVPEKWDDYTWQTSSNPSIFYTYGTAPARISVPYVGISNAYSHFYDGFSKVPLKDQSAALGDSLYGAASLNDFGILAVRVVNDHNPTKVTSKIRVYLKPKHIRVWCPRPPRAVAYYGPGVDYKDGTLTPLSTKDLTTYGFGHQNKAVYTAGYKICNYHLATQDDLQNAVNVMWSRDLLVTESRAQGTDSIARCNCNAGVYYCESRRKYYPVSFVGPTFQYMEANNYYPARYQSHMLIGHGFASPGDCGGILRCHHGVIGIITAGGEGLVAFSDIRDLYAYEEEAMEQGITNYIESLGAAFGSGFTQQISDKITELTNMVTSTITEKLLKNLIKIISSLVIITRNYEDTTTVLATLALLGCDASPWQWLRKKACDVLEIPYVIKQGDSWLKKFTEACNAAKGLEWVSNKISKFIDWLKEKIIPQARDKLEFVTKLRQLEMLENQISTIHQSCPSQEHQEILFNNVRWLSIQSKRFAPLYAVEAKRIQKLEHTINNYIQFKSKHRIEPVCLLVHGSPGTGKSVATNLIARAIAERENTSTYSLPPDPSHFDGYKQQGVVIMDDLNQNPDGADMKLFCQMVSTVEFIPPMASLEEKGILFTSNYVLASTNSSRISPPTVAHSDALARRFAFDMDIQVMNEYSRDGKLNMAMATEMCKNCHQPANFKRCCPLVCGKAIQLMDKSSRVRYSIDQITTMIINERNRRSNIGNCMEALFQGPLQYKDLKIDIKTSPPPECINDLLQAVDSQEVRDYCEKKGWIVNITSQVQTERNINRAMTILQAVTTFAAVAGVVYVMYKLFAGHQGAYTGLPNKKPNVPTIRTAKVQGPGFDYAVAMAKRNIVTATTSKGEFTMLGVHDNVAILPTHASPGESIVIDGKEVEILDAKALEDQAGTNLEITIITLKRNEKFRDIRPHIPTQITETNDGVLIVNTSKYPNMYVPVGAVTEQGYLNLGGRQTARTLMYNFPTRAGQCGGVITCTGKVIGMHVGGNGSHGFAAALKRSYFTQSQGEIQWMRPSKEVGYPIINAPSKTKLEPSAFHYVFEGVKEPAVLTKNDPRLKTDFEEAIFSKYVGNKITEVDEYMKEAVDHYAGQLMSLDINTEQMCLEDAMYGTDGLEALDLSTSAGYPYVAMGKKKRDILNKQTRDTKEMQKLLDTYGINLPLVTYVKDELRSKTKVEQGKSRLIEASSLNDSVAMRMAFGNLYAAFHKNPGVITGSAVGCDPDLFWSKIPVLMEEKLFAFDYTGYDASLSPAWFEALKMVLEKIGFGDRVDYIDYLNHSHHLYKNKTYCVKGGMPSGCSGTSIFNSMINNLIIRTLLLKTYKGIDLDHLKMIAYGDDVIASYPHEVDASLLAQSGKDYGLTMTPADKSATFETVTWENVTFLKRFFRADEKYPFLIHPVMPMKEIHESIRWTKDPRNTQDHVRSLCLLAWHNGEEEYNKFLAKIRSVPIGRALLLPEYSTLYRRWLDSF

In patent publication US6967075B2 (priority 2000, dated 2005):

Target: PV 3Dpol (Poliovirus type 1, UniProt P03300)
Test: Template usage assay with pre-annealed sym/sub RNA
Settings: 0.5 μM end-labeled sym/sub RNA, 100 μM ATP, 5 μM polymerase

5′ GCA UGG GCC C 3′
extension/utilization of end-labeled RNA: efficiently utilized
